Measurements as given in publication PMC10989010, “A panel of janus kinase inhibitors identified with anti-inflammatory effects protect mice from lethal influenza virus infection” (Antimicrobial Agents and Chemotherapy, 2024).
Counter-ions that a name gives are not always drawn.

System: IL-8
Assay: U937 cell-based anti-inflammatory assay for influenza virus infection, IL-8 production (AlphaLISA)
Design: species or system human
Settings: ratio of CC50/IC50
Description: U937 cells were seeded in a 96-well culture plate at a density of 1.5 × 10^5 cells per well and incubated for 24 hours prior to virus infection. Subsequently, the cells in each well were infected with the PR8 virus at a multiplicity of infection of 0.05 and treated with serially diluted drugs or left untreated as a control. The drugs were serially diluted threefold, starting from an initial concentration of 200 µM down to 0.01 µM. […] Following this incubation, the supernatants were collected and subjected to AlphaLISA analysis to determine IL-8, IP-10, and MCP1 protein levels.
The AlphaLISA detection kits employed in this study were IL-8 (PerkinElmer AL224), IP-10 (PerkinElmer AL259), and MCP1 (PerkinElmer, AL244). U937 cell culture supernatants were measured for IL-8, IP-10, and MCP-1 protein levels using AlphaLISA assay as per the manufacturer’s recommendations. The ELISA and AlphaLISA plates were read using the Varioskan LUX multimode microplate reader (Thermo Scientiﬁc, Waltham, MA, USA).

Cc1cc(Nc2nc(N[C@@H](C)c3ccc(F)cc3)c(C#N)cc2F)[nH]n1 [AZ 960]
SI IL-8: >1,200

Cc1cc(Nc2nc(N[C@@H](C)c3ncc(F)cn3)ncc2Cl)n[nH]1 [AZD1480]
SI IL-8: 12

CN1CCN(c2cccc(Nc3nc4c(-c5ccc(S(C)(=O)=O)cc5)cccn4n3)c2)CC1 [CEP-33779]
SI IL-8: 29

CCS(=O)(=O)N1CCN(c2ccc(Nc3ncc(C(N)=O)c(NC4CC4)n3)cc2)CC1 [Cerdulatinib hydrochloride]
SI IL-8: >700

Cc1cc(Nc2cc(CN3CCOCC3)c3nc(C)c(Cc4ccc(Cl)cc4F)n3n2)n[nH]1 [Gandotinib]
SI IL-8: >5,200

N#CCNC(=O)c1ccc(-c2ccnc(Nc3ccc(N4CCOCC4)cc3)n2)cc1 [Momelotinib]
SI IL-8: 18

CNS(=O)(=O)C[C@H]1CC[C@H](N(C)c2ncnc3[nH]ccc23)CC1 [Oclacitinib maleate]
SI IL-8: 1,000

NC(=O)c1cnc2[nH]ccc2c1N[C@@H]1[C@@H]2CC3C[C@H]1C[C@@](O)(C3)C2 [Peficitinib]
SI IL-8: 3,470

N#CC[C@H](C1CCCC1)n1cc(-c2ncnc3[nH]ccc23)cn1 [Ruxolitinib]
SI IL-8: 833

N#CC[C@@H](C1CCCC1)n1cc(-c2ncnc3[nH]ccc23)cn1 [S-Ruxolitinib]
SI IL-8: 3,333

O=C(Nc1ccc(-c2ccnc(Nc3ccc(N4CCOCC4)cc3)n2)cc1)C1CCCN1 (centres unmarked) [XL019]
SI IL-8: 52
